Source: paper PMC5344390
The exact form of at least one protein or probe is not confirmed.

The sequences below were run against MrkH-His6 (UniProt G3FT00) (assay: EMSA). Settings: recombinant protein; probe letters rebuilt from the primers and the genome.

| Sequence | binding result |
| --- | --- |
| ACTGGCCCAGACGATTATTTTCAATTTAATTAATAAGGATATTTCTGCCATCAGAATCGTCGATCTGCTGAATGCGCTCCGCCTTTCCCTGCTGCGCTGCCAGCAGCCGGTGCTAATGGTGAAAAGCGACATTGTCGGGCTGTGCAGAGAGTTGATAAACTTTGACAACGCTATGATTATTAGTGAGAAATCTCCGCTAACTCTTTTTTCATCTATCGTCCAGCGCGCCAAAGGCGTCAGCGAACTGCCGCCGCGAGGATTGCGCAAACAGCTTTCACCACGGGAGTGTCAGATCCTCGAACTGCTCATTGCCAACAATAATAATAAGCGTATTGCCGCCCTGCTCGGCATTGCTCATAAAACGGTTCATAGCCACCGCATCCATATCATGCAAAAACTGGGTATTGATAACTCCCGCACTATGAATCAGCGTATTGCCGCTCTCCATCAATGCTAAATGTTCTCCCGGTAAATCAGTAGCGGATAAAGCGTACTTATTCGCTGTTGATTTACATTTCCCGCCATTCCCATTAATCATCAGGTAGCCTATAATTAATGTATCCTCTGCCTATTGTCTGACTAACCTCGTGAAGAGGGATAATGAACACTAAAATATTCGAAGACAACATTTTA (double strand) [mrkJ regulatory region (wt)] | binds |
| AGGCGCAGGAGTTGAACGAGGTCGCGGCTTCGCTTGAGGCGACGCCGATGCAGGTCGCCCTCGCCTGGCTGCTCCAGCGAGCGCCAAATATTCTGCTGATCCCCGGCACCTCCTCCCGCACGCACCTCGCGGAAAATATTGCCGCTGCCGAGCTGGTCCTGCCCGCGGAAGCGCTGCGCACCCTCGATAATATCGCCACCGCCGCGCGCCGCTGACCTGCCAGACAAAATGGAGGGAACCCTATCCCTCCTCAATATTTGCCTGGAAAAACCTCACCGCTACTGGCACTATAGATCCTACAAATGGGGCGTGATCGACGATCGTTCTCTCATTATCCCCGTTAATTAAACTTAAGTTTTTATCCTTCGACCGGTCTCCAGCTTGGAGGCCGTTGTCGTTTTTGTCATGACCAAAATTCGAAACTCTTGATTACAGGAAATACAATATCAAATTCCAAGTTTATACATATCAATCTGGCTGCAAAGATAGTCAATAACATCAAACGCTCATAAAAACATCTGATTAACCCAATCAGAATGTTGCTATTGCTATAAGAAAAATCAAACGCCTCACGACAACTATTTACAAGGGATGCATATGACAGAGGGAACGATAAAGACC (double strand) [mrkH (mrkHI) regulatory region] | binds |
| ATGGCGGTTTGATGGCGTAAACATGATCGTTTATCTATTTTTTAGTTTAAAAACAATGGATTAATGATTTGTTTCTGAAAGGGGGGATCACATGGGCTGCCCTTGTTCAGGGAGAGGAATGCGCCTCATTCATGCTTTCACCATTCGTTGTGTGAATGGTTTGGTGCTGTTTTCACCACCGCAAAGGCAGATTCAGACTTATCGCGATGGCCTTCCGAGGGCTTTTTCTGCATGCTGTTGCGGTCACTTTCTCTCGCTCTGGCGTTAGGCTTGCTGCGCTGTAAACAACCACCCTCGCGTTTTCATCTATCAATGGCTGTTTATTAATAGTCGATGGTTATCTGTTATATAACTTAATGAAACGTGAACAAATGTATATTTGTCGGCGAATAAATAGCATTCTTTGACGCCGATAGCACCAGCGAACTTATATTTTTAGGTTCGTTACCTGACGCCTTAAATATTGCGGCTCCCGGTCAGTCGAAGATTCTATTAGCAGTGGCATAAATCAGCATCGCCTGATGTTTCTGGTTCTATGCGAATTCACAGTGTGCTCATTGATTCGTAATTCACTCTGACAAGGAAATGGCAATGAAAAAGGTTCTTCTCTCTGCAGCA (double strand) [mrkA regulatory region] | binds |
